Anti-infective test results gathered from many reports (values: NIAID ChemDB through PubChem).

All rows: tests in culture; agent: HIV-1

Lines come from different laboratories, so protocols vary. ECn: concentration that inhibits the pathogen or its effect by n%. Two numbers with a dash give a range or band. An empty or dashed field is not shown.

| structure | cells | method | mutations | strain or isolate | endpoint | value |
|---|---|---|---|---|---|---|
| O=C1N(Cc2ccc(CO)cc2)[C@H](Cc2ccccc2)[C@H](O)[C@@H](O)[C@@H](Cc2ccccc2)N1Cc1ccc(CO)cc1 | PBMC | p24 | - | 2 clinical isolate | EC50 | 0.04 µM |
| O=C(Nc1cc(S(=O)(=O)O)cc2cc(S(=O)(=O)O)c(N=Nc3ccc(N=Nc4c(S(=O)(=O)O)cc5cc(S(=O)(=O)O)cc(NC(=O)c6cccc(Cl)c6Cl)c5c4O)cc3)c(O)c12)c1ccc(Cl)cc1Cl | H9 | - | - | IIIB | EC90 | 1–3.8 µg/mL |
| O=c1[nH]cnc2c1ncn2[C@H]1CC[C@@H](CO)O1 | HT4 + HT4 LacZ-1 | plaque count | RT-M41L Y181C M184V T215Y | RTMN(181 184) (RT M41L Y181C M184V T215Y) | EC50 | 2.6 µM |
| Cc1cc(S(N)(=O)=O)ccc1NC(=O)COc1ccc(Cl)cc1C(=O)c1cc(Cl)cc(C#N)c1 | MAGI | β-galactosidase | RT-L100I | NNRTI-resistant (RT L100I) | EC50 | 0.0005 µM |
| Cc1cn([C@@H]2O[C@H](CO[Si](C)(C)C(C)(C)C)[C@@]3(OS(=O)(=O)C=C3N)[C@H]2O[Si](C)(C)C(C)(C)C)c(=O)[nH]c1=O | CEM | syncytia | RT-Y181C | IIIB nevirapine-resistant (RT Y181C) | EC50 | 2.5 µM |
| Cc1cc(Cl)cc(S(=O)(=O)c2cccc(N)c2C#N)c1 | HeLa + HELA CD4+ | β-galactosidase | RT-V106A | - | EC50 | 0.0015 µM |
| Cc1cn([C@H]2C[C@H](N=[N+]=[N-])[C@@H](CO)O2)c(=O)[nH]c1=O | PBMC | p24 | RT-V75I F77L Q151M | Recombinant | EC50 | 0.04 µM |
| Cc1ccnc2c1NC(=O)c1cccnc1N2C1CC1 | PBMC | - | RT-A98G K103R Y181C | BCF01 | EC50 | 15 µM |
| O=C(c1ccccc1)N1CCC(CC2C(=O)N(c3ccccc3)c3ccccc32)CC1 | MT-2 | plaque count | - | RF | EC50 | <11 µM |
| Nc1nc(NC2CC2)c2ncn([C@H]3C=C[C@@H](CO)C3)c2n1 | HeLa | luciferase | RT-V118I M184V | Recombinant | EC50 | 8.07 µM |
| CO[P@](=O)(c1cc(C)cc(/C=C/C#N)c1)c1c(C(N)=O)[nH]c2ccc(Cl)cc12 | MT-4 | ELISA | Y181C | NL4-3 | EC50 | 0.0036 µM |
| CCCc1cc(=O)oc2c3c(c4c(c12)OC(C)(C)C=C4)O[C@H](C)[C@@H](C)[C@@H]3O | MM + M/M | p24 | - | ADA | EC50 | 0.07 µM |
| O=C1N(c2ccccc2)c2ccccc2C1(Cc1nccn1Cc1ccccc1)Cc1nccn1Cc1ccccc1 | MT-2 | cytopathic effect / XTT | - | IIIB | EC50 | 1.3 µM |
| COc1cc(C)cc(S(=O)(=O)c2cccc(N)c2C#N)c1 | MT-4 | cytopathic effect | - | IIIB | EC50 | 0.03 µM |
| CC(C)=CCOc1cc(NC(=S)c2ccoc2C)ccc1Cl | CEM | cytopathic effect | RT-V106A | E-2 (RT-V106A) | EC50 | 0.0082 µg/mL |
| O=C1N(c2ccccc2)c2ccccc2C1(Cc1ccncc1)Cc1ccc([N+](=O)[O-])cc1 | MT-2 | cytopathic effect / XTT | - | IIIB | EC50 | 3.4 µM |
| CC(C)c1nc(CN(C)C(=O)N[C@H](C(=O)N[C@@H](Cc2ccccc2)C[C@H](O)[C@H](Cc2ccccc2)NC(=O)OCc2cncs2)C(C)C)cs1 | PBMC | p24 | PR-L63P | ERS104PRE(PR-L63P) Clinical isolate | EC50 | 0.044 µM |
| O=c1[nH]cnc2c1ncn2[C@H]1CC[C@@H](CO)O1 | PBMC | p24 | RT-M184V | RT-M184V XM-M184V | EC90 | 25 µM |
| O=c1[nH]cnc2c1ncn2[C@H]1CC[C@@H](CO)O1 | CEM | syncytia | - | IIIB | EC50 | 5 µM |
| COc1cc(C(F)(F)F)cc(S(=O)(=O)c2cccc(N)c2C#N)c1 | HeLa + HELA CD4+ | β-galactosidase | RT-P236L | - | EC50 | 0.008 µM |
| Cc1cc(C#Cc2cccc(N)c2)cc(C)c1Oc1ccnc(NC2CCN(Cc3ccc(S(N)(=O)=O)cc3)CC2)n1 | MT-4 | MTT | Y181C | IIIB | EC50 | 0.027 µM |
| Cc1cc(O)cc(S(=O)(=O)c2cccc(N)c2C#N)c1 | HeLa + HELA CD4+ | β-galactosidase | RT-K103N V108I | - | EC50 | 10 µM |
| Cc1cc(C#N)cc(C)c1Oc1nc(Nc2ccc(C#N)cc2)nc(N)c1Br | PBMC | absorbance | - | NL4-3 | EC50 | 0.0006 µM |
| Cc1ccc2c(c1)C(CC1CCN(C)CC1)(CC1CCN(C)CC1)c1ccccc1-2 | MT-2 | cytopathic effect / XTT | - | IIIB | EC50 | 0.8 µM |
| Cc1cn([C@H]2C[C@H](N=[N+]=[N-])[C@@H](CO)O2)c(=O)[nH]c1=O | MM + M/M | p24 | - | ADA | EC50 | 0.03 µM |
| Cc1ccnc2c1NC(=O)c1cccnc1N2C1CC1 | CEM + CEM-SS | XTT | RT-L100I | Oxathiin carboxanilide-resistant RT L100I | EC50 | 0.1 µM |
| Cc1ccnc2c1NC(=O)c1cccnc1N2C1CC1 | CEM | syncytia | RT-L100I | IIIB TIBO R82150-resistant (RT L100I) | EC50 | 0.1 µM |
| Cc1ccnc2c1NC(=O)c1cccnc1N2C1CC1 | - | luminescence | - | - | EC50 | >40.5 µM |
| Cc1cc(C#Cc2ccc(C(=O)O)cc2)cc(C)c1Oc1ccnc(Nc2ccc(C#N)cc2)n1 | MT-4 | MTT | F227L + V106A | IIIB | EC50 | 0.296 µM |
| COC(=O)N[C@H](C(=O)N[C@@H](Cc1ccccc1)[C@@H](O)CN(Cc1ccc(-c2ccccn2)cc1)NC(=O)[C@@H](NC(=O)OC)C(C)(C)C)C(C)(C)C | MT-2 | p24 / ELISA | I401T | IIIB | EC50 | 0.0009 µM |
| Nc1ccn([C@H]2CC[C@@H](CO)O2)c(=O)n1 | CEM | syncytia | - | IIIB | EC50 | 0.05 µM |
| CN1CC=C(CC2(CC3=CCN(C)CC3)c3cccc4cccc(c34)C2O)CC1 | MT-2 | cytopathic effect / XTT | - | IIIB | EC50 | 5.2 µM |
| C[C@H](Cn1cnc2c(N)ncnc21)OCP(=O)(O)O | C8166 | syncytia | - | IIIB | EC50 | 14 µM |
| COC(=O)[C@H](C)NP(=O)(OC[C@@H]1C=C[C@H](n2cc(C)c(=O)[nH]c2=O)O1)Oc1ccc(Br)cc1 | PBMC | p24 | RT-M41L T215Y | X267-2 Clinical isolate ZDV-resistant | EC50 | 0.00018 µM |
| Nc1nc(=O)n([C@@H]2CS[C@H](CO)O2)cc1F | MT-2 | recombinant virus assay | K65R M184V | Clinical isolate | EC50 | >13.3 µM |
| Cc1ccnc2c1NC(=O)c1cccnc1N2C1CC1 | AA5 | cytopathic effect / XTT | - | IIIB | EC50 | 0.07 µM |
| CCC(=O)c1ccc(F)c([C@@H]2C[C@@H]2NC(=O)Nc2ccc(C#N)cn2)c1O | PBMC | absorbance | - | 97ZA009 | EC50 | 0.0009 µM |
| COC(=O)N[C@H](C(=O)N[C@@H](Cc1ccccc1)[C@@H](O)CN(Cc1ccc(-c2ccccn2)cc1)NC(=O)[C@@H](NC(=O)OC)C(C)(C)C)C(C)(C)C | MT-4 | - | L23I E34Q K43I M46I I50L G51A L63P A71V V82A T91A ATV resistant | NL4-3 | EC50 | >1 µM |
| Cc1cn([C@H]2C[C@H](N=[N+]=[N-])[C@@H](CO)O2)c(=O)[nH]c1=O | CEM + CEM-SS | cytopathic effect / XTT | RT-K103E | NL4-3 | EC50 | 0.002 µM |
| O=c1[nH]cnc2c1ncn2[C@H]1CC[C@@H](CO)O1 | PBMC | - | RT-A98G Y181C | BCF08 | EC50 | 0.2 µM |
| Cc1cc(C#CC2CC2)cc(C)c1Oc1ccnc(Nc2ccc(C#N)cc2)n1 | MT-4 | MTT | RES056 | IIIB | EC50 | 1 µM |
| Cc1ccnc2c1NC(=O)c1cccnc1N2C1CC1 | CEM | cytopathic effect | RT-K103N | Y-1 (RT-K103N) | EC50 | 2.35 µg/mL |
| Cc1cn([C@H]2C[C@H](N=[N+]=[N-])[C@@H](CO)O2)c(=O)[nH]c1=O | HeLa | luciferase | RT-M41L A62V S68N G112S M184V | Recombinant | EC50 | 0.00608 µM |
| Cc1cn([C@H]2C[C@H](N=[N+]=[N-])[C@@H](CO)O2)c(=O)[nH]c1=O | PBMC | p24 | RT-M41L E44D D67N T69D L210W T215Y | T156-3 Clinical isolate ZDV-resistant | EC50 | >3.2 µM |
| O=c1[nH]cnc2c1ncn2[C@H]1CC[C@@H](CO)O1 | MT-2 | cytopathic effect / MTT | - | LAI Laboratory isolate | EC50 | 3.4 µM |
| Cc1cn([C@H]2C[C@H](N=[N+]=[N-])[C@@H](CO)O2)c(=O)[nH]c1=O | CEM + CEM-SS | XTT | RT-L100I | Dihydrocostatolide-resistant (RT-L100I) | EC50 | 0.003 µM |
| O=C1N(c2ccccc2)c2ccccc2C1(CC1=CCN(CC2CC2)CC1)CC1=CCN(CC2CC2)CC1 | MT-2 | cytopathic effect / XTT | - | IIIB | EC50 | 5.1 µM |
| Nc1nc(=O)n([C@@H]2CS[C@H](CO)O2)cc1F | TZM-gfp | GFP | - | NL4-3 | EC50 | 1 µM |
| C[C@H](Cn1cnc2c(N)ncnc21)OCP(=O)(O)O | HeLa | luciferase | - | NL4-3 WT | EC50 | 0.5555 µM |
| Cc1ccnc2c1NC(=O)c1cccnc1N2C1CC1 | U-937 | cytopathic effect / XTT | - | IIIB | EC50 | 0.3 µM |
| CCCc1cc(=O)oc2c3c(c4c(c12)OC(C)(C)C=C4)O[C@@H](C)[C@H](C)[C@@H]3O | CEM + CEM-SS | XTT | RT-T139I | NL4-3 | EC50 | 11.9 µM |
| Cc1ccc(-c2ccc3c(c2)C=C(C(=O)Nc2ccc(C[N+](C)(C)C4CCOCC4)cc2)CCC3)cc1 | PBMC | antigen | - | ADA R5 | EC50 | 0.016 µg/mL |
| O=S(=O)(c1ccccc1)c1ccccc1 | CEM + CEM-SS | XTT | - | IIIB | EC50 | 3.7 µM |
| Cc1ccnc2c1NC(=O)c1cccnc1N2C1CC1 | MAGI (CCR5) + MAGI | β-galactosidase | RT-K103N M184V | NL4-3 | EC50 | 2.3 µM |
| Cc1cn([C@H]2C[C@H](N=[N+]=[N-])[C@@H](CO)O2)c(=O)[nH]c1=O | PBMC | p24 | - | Ba-L Laboratory isolate | EC50 | 0.011 µM |
| Cc1cn([C@H]2C[C@H](N=[N+]=[N-])[C@@H](CO)O2)c(=O)[nH]c1=O | MT-4 | p24 | RT-K65R L74V M184V Y115F | XM-ABC-resistant | EC90 | 0.04 µM |
| Cc1cc(Br)cc(S(=O)(=O)c2cccc(N)c2C#N)c1 | HeLa + HELA CD4+ | β-galactosidase | RT-K103N P225H | - | EC50 | 3.3 µM |
| CCc1c(CC2CCCCC2)nc(SCC(=O)c2ccccc2)[nH]c1=O | C8166 | p24 / ELISA | V106M | NL4-3 | EC50 | 0.172 µM |
| CC(C)CN(C[C@@H](O)[C@H](Cc1ccccc1)NC(=O)O[C@H]1CO[C@H]2OCC(F)(F)[C@H]21)S(=O)(=O)c1ccc(N)cc1 | MT-4 | - | - | NL4-3 | EC50 | 0.0037 µM |
| Cc1ccc(S(=O)(=O)N(CC(C)C)C[C@@H](O)[C@H](Cc2ccccc2)NC(=O)O[C@H]2CO[C@H]3OCC[C@H]32)cc1 | MT-2 | ATP | 8374-P47 GS-8374-resistant | IIIB | EC50 | 0.0135 µM |
| CC(C)=CCN1Cc2cc(Cl)cc3[nH]c(=S)n(c23)C[C@@H]1C | CEM | syncytia | - | IIIB | EC50 | 0.02 µM |
| CCc1c(Sc2ccccn2)n(COCc2ccccc2)c(=O)[nH]c1=O | CEM + CEM-SS | cytopathic effect / XTT | RT-K103N | NL4-3 | EC50 | 0.38 µM |
| Nc1ccn([C@H]2CC[C@@H](CO)O2)c(=O)n1 | PBMC | p24 | RT-Q151M | Recombinant | EC50 | 0.07 µM |
| O=C1N(Cc2ccc(CO)cc2)[C@H](Cc2ccccc2)[C@H](O)[C@@H](O)[C@@H](Cc2ccccc2)N1Cc1ccc(CO)cc1 | MT-4 | cytopathic effect / XTT | PR-V82A | IIIB | EC50 | 0.12 µM |
| COc1ccc(S(=O)(=O)N(CC(C)C)C[C@@H](O)[C@H](Cc2ccccc2)NC(=O)O[C@H]2CO[C@H]3OCC[C@H]32)cc1 | PBMC | p24 | - | LAI Laboratory isolate | EC50 | 0.0003 µM |
| CCOP(=O)(COc1ccc(C[C@H](NC(=O)O[C@H]2CO[C@H]3OCC[C@H]32)[C@H](O)CN(CC(C)C)S(=O)(=O)c2ccc(OC)cc2)cc1)OCC | MT-2 | p24 / ELISA | R41K | IIIB | EC50 | 0.008 µM |
| Nc1ccn([C@H]2CC[C@@H](CO)O2)c(=O)n1 | PBMC | - | RT-A98G V106I Y181C | BCF07 | EC50 | 0.06 µM |
| Nc1ccn([C@H]2CC[C@@H](CO)O2)c(=O)n1 | HT4 + HT4 LacZ-1 | plaque count | - | HXB2 | EC50 | 0.24 µM |
| Cc1ccnc2c1NC(=O)c1cccnc1N2C1CC1 | MT-4 | MTT | E138K | IIIB | EC50 | 0.158 µM |
| CCOCn1c(Cc2ccccc2)c(C(C)C)c(=O)[nH]c1=O | CEM | cytopathic effect | RT-V108I M184I | D-3 (RT-V108I M184I) | EC50 | 0.015 µg/mL |
| C#C[C@@]1(CO)C=C[C@H](n2cc(C)c(=O)[nH]c2=O)O1 | MAGI (CCR5) + MAGI | β-galactosidase | RT-K103N M184V | NL4-3 | EC50 | 0.31 µM |
| Cc1cn([C@H]2C=C[C@@H](CO)O2)c(=O)[nH]c1=O | MT-2 | recombinant virus assay | M41L/D67N/K70R/K103N/L210W/T215F/K219Q | Clinical isolate | EC50 | 1.632 µM |
| S=C(NCCc1cccs1)Nc1ccc(Br)cn1 | HT4 + HeLa | plaque count | RT-M41L L210W T215Y | Q252-2 Clinical isolate NRTI-resistant | EC50 | 0.156 µM |
| C[C@@H](Cn1cnc2c(N)nc(N)nc21)OCP(=O)(O)O | MOLT4 + MOLT-4 | syncytia | - | HE | EC50 | 8.5 µM |
| CC(C)(C)NC(=O)[C@@H]1C[C@@H]2CCCC[C@@H]2CN1C[C@@H](O)[C@H](Cc1ccccc1)NC(=O)[C@H](CC(N)=O)NC(=O)c1ccc2ccccc2n1 | MT-4 | - | M46I I50V N38K M36I GRL05010-resistant | NL4-3 | EC50 | 0.036 µM |